Laboratory results reported in patent US20020164721A1, “Design of a polyepitopic construct for the induction of HLA-A2.1 restricted HIV 1 specific CTL responses using HHD mice” (priority 1999, published 2002).

Legend:
[1] = test system: HHD-transfected RMA-S cells loaded with variant peptides; experiment: Cross-recognition of the main HIV 1 natural variants by induced CTL; type: in vivo, HHD mice; details: CTL induced by the immunizing peptide; FIG. 4
[2] = test system: peptide-pulsed HHD-transfected RMAS cells; type: in vivo, HHD mice; details: for Responder/tested mice: with helper peptide, 50 μg CD8 + 140 μg HBV core T13L in IFA

Row | Sequence | cross-recognition of natural HIV 1 variants (in words) [1] | effect of helper co-injection on the response (in words) ([2]; co-injected HBV core T13L) | Responder/tested mice [2]
1 | SLYNTVATL [S9L, HIV 1 GAG p17 (77-85) CD8 epitopic peptide] | cross-lysed significantly all main natural variants | abolished | 0/6
2 | AKTPLCVTL (KLTPLCVTL) [K9L/T, HIV 1 ENV gp120 (120-128) CD8 epitopic peptide, T variant] | lack of cross-recognition |  | 1/6
